A mixed list of measured activities; the numbers were collected in NIAID ChemDB.

All rows: enzyme or target tests; species: HIV-1; protein: Reverse transcriptase

Blank or dashed fields: not listed here. ICn: concentration for n% inhibition. Lines come from different laboratories, so protocols vary. a–b is a range or a potency band.

{"smiles": "Cc1cc(C)cc(S(=O)(=O)c2c(C(=O)NC(C)C(N)=O)[nH]c3ccc(Cl)cc23)c1", "method": "RT activity", "measure": "IC50", "mutations": "WT", "result": "0.026 µM"}
{"smiles": "Cc1c(C(C#N)c2cccc(Cl)c2)nc(SC(C)C)[nH]c1=O", "method": "nucleotide incorporation / fluorescence", "measure": "IC50", "result": "0.002 µM"}
{"smiles": "C=C(C)[C@@H]1CCC2[C@]3(CC[C@]4(C)[C@@H]([C@H](C)CC/C=C(/C)C(=O)O)CC[C@@]24C)C[C@]13CCC(=O)O", "method": "RNase H", "measure": "IC50", "result": ">424.9 µM"}
{"smiles": "C/C1=C\\C=C\\C2(C)C=C(CO[C@H]3O[C@H](CO)[C@H](O)[C@H](O)[C@H]3O)C(C)CC23OC([O-])C(C3=O)C(O)/C=C/C2(C)C=C(C=O)C(C)CC23OC([O-])C(C3=O)C(O)/C(C)=C/C=C/C2C=C(CO[C@H]3O[C@H](CO)[C@H](O)[C@H](O)[C@H]3O)C(C)CC23OC([O-])C(C3=O)C(O)/C=C/C2(C)C=C(C=O)C(C)CC23OC([O-])C(C3=O)C1O", "strain or isolate": "IIIB", "method": "RT activity", "measure": "IC50", "result": "0.8 µg/mL"}
{"smiles": "O=C1c2ccccc2S[C@H]2[C@H](O)[C@@H](O)[C@H](O)[C@H](O)CN12", "method": "RT activity / absorbance", "measure": "IC50", "result": "2.11 µM"}
{"smiles": "CC(=O)Nc1ccc2c(c1)CN(c1nn3c(C4CC4)nnc3c3ccccc13)CC2", "strain or isolate": "98US_MSC5016", "method": "RT activity / fluorescence", "measure": "IC90", "result": "0.41 µM"}
{"smiles": "O=C1C[C@@H](c2ccc(O)cc2)Oc2cc(O)cc(O)c21", "method": "RT activity", "measure": "IC50", "result": ">735 µM"}
{"smiles": "Nc1ncnc2c(C[C@@H](CF)OCP(=O)(O)OP(=O)(O)OP(=O)(O)O)cnn12", "method": "nucleotide incorporation / radiometric", "measure": "IC50", "result": "<0.05 µM"}
{"smiles": "c1csc(-c2nnc3c4ccccc4c(N4CCc5ccccc5C4)nn23)c1", "strain or isolate": "KER2008", "method": "RT activity / fluorescence", "measure": "IC50", "result": ">100 µM"}
{"smiles": "CC(C)CCC[C@@H](C)[C@H]1CC[C@H]2[C@@H]3CC[C@H]4C[C@@H](CCC=C(c5cc(Cl)c(O)c(C(=O)O)c5)c5cc(Cl)c(O)c(C(=O)O)c5)CC[C@]4(C)[C@H]3CC[C@]12C", "method": "RT activity", "measure": "IC50", "result": "7.8 µM"}
{"smiles": "CC(Cc1ccc2c(=O)[nH]cnn12)OCP(=O)(O)OP(=O)(O)OP(=O)(O)O", "method": "nucleotide incorporation / radiometric", "measure": "IC50", "result": "≥0.25 µM"}
{"smiles": "Cc1cn([C@H]2CC[C@@H](COP(=O)(O)OP(=O)(O)OP(=O)(O)O)O2)c(=O)[nH]c1=O", "method": "nucleotide incorporation / radiometric", "measure": "IC50", "result": "0.22 µg/mL"}
{"smiles": "Cc1nnc2c3ccccc3c(N3CCc4ccc(N)cc4C3)nn12", "strain or isolate": "98US_MSC5016", "method": "RT activity / fluorescence", "measure": "IC50", "result": "8.28 µM"}
{"smiles": "O=c1[nH]c(=O)n([C@H]2CC[C@@H](COP(=O)(O)OP(=O)(O)OP(=O)(O)O)O2)cc1-c1cccs1", "method": "nucleotide incorporation / radiometric", "measure": "IC50", "result": "6 µg/mL"}
{"smiles": "CC(C)(Cc1cnn2c(=O)[nH]c(N)nc12)OCP(=O)(O)OP(=O)(O)OP(=O)(O)O", "method": "nucleotide incorporation / radiometric", "measure": "IC50", "result": "≥0.25 µM"}
{"smiles": "O=C1CS[C@@H]2[C@H](O)[C@@H](O)[C@H](O)[C@H](O)CN12", "method": "RT activity / absorbance", "measure": "IC50", "result": "11.01 µM"}
{"smiles": "C[C@@H](Cc1cnn2c(N)ncnc12)OCP(=O)(O)OP(=O)(O)OP(=O)(O)O", "method": "nucleotide incorporation / radiometric", "measure": "IC50", "result": "<0.05 µM"}
{"smiles": "O=C1CS[C@@H]2[C@H](O)[C@@H](O)[C@@H](O)[C@H](O)CN12", "method": "RT activity / absorbance", "measure": "IC50", "result": "6.84 µM"}
{"smiles": "CN(C)c1nc(N)nc2c1ncn2[C@H]1C[C@H](N=[N+]=[N-])[C@@H](CO)O1", "method": "nucleotide incorporation", "measure": "IC50", "mutations": "K65R", "result": ">50 µM"}
{"smiles": "CC(Cc1ccc2c(N)nc(N)nn12)OCP(=O)(O)OP(=O)(O)OP(=O)(O)O", "method": "nucleotide incorporation / radiometric", "measure": "IC50", "result": "≥0.25 µM"}
{"smiles": "O=[N+]([O-])c1ccc2c(c1)CN(c1nn3c(C(F)F)nnc3c3ccccc13)CC2", "strain or isolate": "KER2008", "method": "RT activity / fluorescence", "measure": "IC50", "result": "6.22 µM"}
{"smiles": "COc1c(C(=O)C2=CN3OC(C)=NC3N=C2)c(O)c(OC)c2occc12", "method": "scintillation proximity / radiometric", "measure": "IC50", "result": "0.0003 µM"}
{"smiles": "O=C(O)/C=C/C(=O)NC[C@@H]1CC[C@H](n2cc(-c3cccs3)c(=O)[nH]c2=O)O1", "method": "nucleotide incorporation / radiometric", "measure": "IC50", "result": ">200 µg/mL"}
{"smiles": "Nc1ncnn2c(CCOCP(=O)(O)OP(=O)(O)OP(=O)(O)O)ccc12", "method": "nucleotide incorporation / radiometric", "measure": "IC50", "result": "<0.05 µM"}
{"smiles": "NC[C@@H]1CC[C@H](n2cc(-c3cccs3)c(=O)[nH]c2=O)O1", "method": "nucleotide incorporation / radiometric", "measure": "IC50", "result": "200 µg/mL"}
{"smiles": "Nc1ncnc2c(CC3(OCP(=O)(O)OP(=O)(O)OP(=O)(O)O)CC3)cnn12", "method": "nucleotide incorporation / radiometric", "measure": "IC50", "result": "0.05–0.25 µM"}

4 of the rows above, restated:

| smiles | strain or isolate | method | measure | mutations | result |
|---|---|---|---|---|---|
| O=C1CS[C@@H]2[C@H](O)[C@@H](O)[C@@H](O)[C@H](O)CN12 | - | RT activity / absorbance | IC50 | - | 6.84 µM |
| CC(Cc1ccc2c(N)nc(N)nn12)OCP(=O)(O)OP(=O)(O)OP(=O)(O)O | - | nucleotide incorporation / radiometric | IC50 | - | ≥0.25 µM |
| O=c1[nH]c(=O)n([C@H]2CC[C@@H](COP(=O)(O)OP(=O)(O)OP(=O)(O)O)O2)cc1-c1cccs1 | - | nucleotide incorporation / radiometric | IC50 | - | 6 µg/mL |
| O=C1c2ccccc2S[C@H]2[C@H](O)[C@@H](O)[C@H](O)[C@H](O)CN12 | - | RT activity / absorbance | IC50 | - | 2.11 µM |